# Test results published in ChEMBL document CHEMBL1156829.
# This is a selection; strong and weak results do not stand in their true shares.
# Test: NOVARTIS: Inhibition Frequency Index (IFI) - the number of HTS assays where a compound showed > 50% inhibition/induction, expressed as a percentage of the number of assays in which the compound was tested.
# Assay type: functional
row,SMILES,IFI [%]
1,CCCN(CCC)[P+](CC)(N(CCC)CCC)N(CCC)CCC,12.7
2,CCCN(CCC)[P+](C)(N(CCC)CCC)N(CCC)CCC,7.84
3,CN(C)[P+](C)(N(C)C)N(C)C,12.4
